Results of unrelated studies side by side (data: NIAID ChemDB).

All rows: tests in culture

MIC50, MIC90 and the like: level of inhibition, or share of isolates inhibited.

compound | read-out | conditions | mutations | cell line | tested at | organism | strain or isolate | method | value
NC12CC3CC(CC(C3)C1)C2 | EC50 | - | - | VERO | - | Measles virus | Sugiyama | plaque count | 100 µg/mL
N#Cc1c(N2CCCC2)nsc1-c1ccccc1 | EC50 | - | - | HEP-2 | - | Coxsackie virus | TYPE B1 | plaque count | >7 µg/mL
Nc1ncnc2c1ncn2C[C@@H](CO)OCP(=O)(O)O | EC50 | - | - | HEL | - | Varicella zoster virus | OKA | plaque count | 0.015 µg/mL
CCCOc1ccc2nc(NC(=O)OC)[nH]c2c1 | EC90 | - | - | - | - | Cryptococcus neoformans | IU4 | - | 3.2 µg/mL
Cc1ccc(N2NOC(=O)C2S(=O)(=O)Nc2nc3cc(F)ccc3s2)cc1 | MIC | - | - | - | - | Aspergillus clavatus | MTCC323 | broth dilution | 250 µg/mL
C[C@@H](O)[C@H]1C(=O)N2C(C(=O)O)=C(SCCN=CN)C[C@H]12 | MIC50 | - | - | - | - | Staphylococcus aureus | 24 strains (ofloxacin-susceptible) | - | 4 µg/mL
Nc1nc(Cl)nc2c1ncn2[C@H]1C[C@H](O)[C@@H](CO)O1 | EC50 | - | - | Sheep chondrocytes G81092 | - | Maedi-visna virus | KV1772 | cytopathic effect | 1.5 µM
NC(=O)c1ncn([C@@H]2O[C@H](CO)[C@@H](O)[C@H]2O)n1 | EC50 | - | - | CV-1 | - | Measles virus | TN1994 | cytopathic effect | 10 µg/mL
NC1CCN(c2nc3c(cc2F)c(=O)c(C(=O)O)cn3-c2ccc(F)cc2F)C1 | MIC50 | - | - | - | - | Staphylococcus aureus | 24 strains (ofloxacin-susceptible) | - | 0.06 µg/mL
N#Cc1c(N2CCCCC2)nsc1-c1ccccc1 | EC50 | - | - | HEP-2 | - | Coxsackie virus | TYPE B1 | plaque count | >25 µg/mL
Nc1nc2c(ncn2COC(CO)CO)c(=O)[nH]1 | EC50 | - | - | HEL | - | Varicella zoster virus | PFA-resistant/A | plaque count | 0.33 µg/mL
CC[C@@]1(O)C(=O)OCc2c1cc1n(c2=O)Cc2cc3cc(O)ccc3nc2-1 | MIC | - | - | - | - | Saccharomyces cerevisiae | Mutant ΔERG6 | - | >100 µg/mL
CO[C@@H]1C[C@@H](C[C@H]2CC[C@H](C)[C@H]([C@@H](C)C(C)=O)O2)OC2(O[C@](C)([C@H]3CC[C@@](C)([C@@H]4O[C@@H]([C@H]5O[C@@](O)(CO)[C@@H](C)C[C@@H]5C)C[C@@H]4C)O3)C[C@H]2C)[C@@H]1C | inhibition | - | - | - | 0.005 µg/mL | Toxoplasma gondii | RH | uracil uptake / radiometric | 0%
C[C@@]1(O)[C@@H](CO)O[C@@H](n2ccc(=O)[nH]c2=O)[C@@H]1O | EC50 | - | - | VERO | - | Measles virus | Niigata-1 | plaque count | >500 µg/mL
Cc1cn([C@@H]2C[C@@H](O)[C@H](CO)O2)c(=O)[nH]c1=O | EC50 | - | - | PDH | - | Duck hepatitis B virus | - | - | 0.18 µM
COc1c(N2C[C@@H]3CCCN[C@@H]3C2)c(F)cc2c(=O)c(C(=O)O)cn(C3CC3)c12 | MIC90 | - | - | - | - | Staphylococcus aureus | 25 strains (methicillin-susceptible) | - | 0.12 µg/mL
CCC(CCC(C)C1CCC2C3C[C@@H](O)[C@@]4(O)C[C@@H](O)CCC4(C)C3CCC12C)C(C)C | inhibition | - | - | HepG2 2.2.15 | 100 µg/mL | Hepatitis B virus | - | antigen | 40.8%
O=c1c(O)c(-c2ccc(O)c(O)c2)oc2cc(O)cc(O)c12 | inhibition | - | - | VERO | 60 µg/mL | Rotavirus A | SA-11 | - | 70%
N=C(N)c1ncn([C@@H]2O[C@H](CO)[C@@H](O)[C@H]2O)n1 | EC50 | - | - | MDCK | - | Influenza A virus (H1N1) | A/New Caledonia/20/99 | neutral red | 18 µg/mL
CC1COc2c(N3CCN(C)CC3)c(F)cc3c(=O)c(C(=O)O)cn1c23 | MIC50 | - | - | - | - | Staphylococcus aureus | 20 strains (oxacillin-susceptible) | - | 0.25 µg/mL
NC(=O)c1[nH]nc([C@@H]2O[C@H](CO)[C@@H](O)[C@H]2O)c1O | EC50 | - | - | VERO | - | Measles virus | Kitaken-1 | plaque count | 0.16 µg/mL
CSc1nsc(-c2ccccc2)c1C(N)=O | EC50 | - | - | HEP-2 | - | Coxsackie virus | TYPE B1 | plaque count | >250 µg/mL
CO/N=C1\CN(c2nc3c(cc2F)c(=O)c(C(=O)O)cn3C2CC2)CC1CN | MIC90 | - | - | - | - | Staphylococcus aureus | 25 strains (methicillin-susceptible) | - | ≤0.06 µg/mL
COC(=O)Nc1nc2ccc(Sc3ccccc3)cc2[nH]1 | EC50 | - | - | - | - | Cryptococcus neoformans | 10 isolates | - | 0.012 µg/mL
CC[C@@]1(O)C(=O)OCc2c1cc1n(c2=O)Cc2c-1nc1cc3c(cc1c2C)OCO3 | MIC | - | - | - | - | Saccharomyces cerevisiae | JHY6-1C | - | >100 µg/mL
CCO/N=C/c1ccc(OCCC2CCN(c3ccc(C)nn3)CC2)cc1 | EC50 | - | - | KB | - | Rhinovirus | 33342 (ICAM-1 receptor group 17) | neutral red | 0.008 µM
C[C@@]1(O)[C@H](O)[C@@H](CO)O[C@H]1c1coc2c(N)ncnc12 | inhibition | - | - | HeLa-5B | 10 µg/mL | Hepatitis C virus | - | MTT | 11.56%
COC(=O)Nc1nc2ccc(C(=O)c3cccs3)cc2[nH]1 | EC50 | - | - | - | - | Cryptococcus neoformans | ATCC 14116 | - | <0.29 µg/mL
Nc1nc(Cl)cc2c1ncn2[C@@H]1O[C@H](CO)C[C@H]1O | EC50 | - | - | Sheep chondrocytes G81092 | - | Maedi-visna virus | KV1772 | cytopathic effect | 15 µM
Cc1ccc(N2NOC(=O)C2S(=O)(=O)Nc2ccc(-n3c(-c4cccc([N+](=O)[O-])c4)nc4ccccc4c3=O)cc2)cc1 | zone | - | - | - | 250 µg/mL | Aspergillus clavatus | MTCC323 | agar diffusion | 24 mm
OC[C@H]1O[C@@H](n2cnc3c(NC4CCCCCC4)cc(Cl)nc32)C[C@@H]1O | EC50 | - | - | MDBK | - | Bovine herpesvirus 1 | IRB-LA | cytopathic effect | >50 µM
C[C@H]1COc2c(N3CCN(C)CC3)c(F)cc3c(=O)c(C(=O)O)cn1c23 | MIC50 | - | - | - | - | Staphylococcus aureus | 24 strains (ofloxacin-susceptible) | - | 0.25 µg/mL
Cc1ccc(N2NOC(=O)C2S(=O)(=O)Nc2ccc(-n3c(-c4ccccc4)nc4ccccc4c3=O)cc2)cc1 | zone | - | - | - | 250 µg/mL | Aspergillus clavatus | MTCC323 | agar diffusion | 24 mm
Nc1ccn(C[C@@H](CO)OCP(=O)(O)O)c(=O)n1 | EC50 | - | - | HEL | - | Varicella zoster virus | OKA | plaque count | 0.067 µg/mL
COC(=O)c1c(SC)nsc1-c1ccccc1 | EC50 | - | - | HEP-2 | - | Coxsackie virus | TYPE B1 | plaque count | >100 µg/mL
Nc1ncnc2c1ncn2[C@H]1C[C@H](O)[C@@H](CO)O1 | EC50 | - | - | Sheep chondrocytes G81092 | - | Maedi-visna virus | KV1772 | cytopathic effect | 1.5 µM
CCCSc1nsc(-c2ccccc2)c1C(=O)O | EC50 | - | - | HEP-2 | - | Coxsackie virus | TYPE B1 | plaque count | >500 µg/mL
COc1cc2c[n+](C)c3c4cc5c(cc4ccc3c2cc1OC)OCO5 | MIC | - | - | - | - | Saccharomyces cerevisiae | JHY6-1C | - | 6.25 µg/mL
Nc1cc2[nH]cnc2c(=O)[nH]1 | EC50 | - | - | VERO | - | Measles virus | Kitaken-1 | plaque count | 0.83 µg/mL
CC[C@@]1(O)C(=O)OCc2c1cc1n(c2=O)Cc2cc3cc4c(cc3nc2-1)OCO4 | MIC | - | - | - | - | Saccharomyces cerevisiae | Mutant ΔERG6 | - | >100 µg/mL
CSc1nsc(-c2ccccc2)c1C(=O)O | EC50 | - | - | HEP-2 | - | Coxsackie virus | TYPE B1 | plaque count | >500 µg/mL
CC(=O)NC[C@H]1CN(c2ccc(N3CCOCC3)c(F)c2)C(=O)O1 | MIC90 | - | - | - | - | Staphylococcus aureus | 24 strains (ofloxacin-susceptible) | - | 2 µg/mL
O=c1c(O)c(-c2ccc(O)cc2)oc2cc(O)cc(O)c12 | EC50 | - | - | VERO | - | Bovine herpesvirus 1 | - | - | 3.5 µg/mL
Cc1ccc(N2NOC(=O)C2S(=O)(=O)Nc2nc(-c3ccc(Br)cc3)cs2)cc1 | MIC | - | - | - | - | Aspergillus clavatus | MTCC323 | broth dilution | 250 µg/mL
CC[C@@]1(O)C(=O)OCc2c1cc1n(c2=O)Cc2c-1nc1cc3c(cc1c2CCl)OCO3 | MIC | - | - | - | - | Saccharomyces cerevisiae | Mutant ΔERG6 | - | 3.12 µg/mL
C[C@@H]1[C@H](O)[C@@H](C)/C=C/C=C/CC/C=C/C=C/C=C/C=C/C(O[C@H]2O[C@H](C)[C@@H](O)[C@H](N)[C@@H]2O)CC2O[C@](O)(CC(O)C(O)CCC(O)CC(O)CC(O)CC(=O)O[C@H]1C)CC(O)C2C(=O)O | MFC100 | - | - | - | - | Candida albicans | MD 37 | broth dilution | 64 µg/mL
CN(C)C(=O)/N=N/C(=O)N(C)C | EC50 | - | - | VERO | - | Tacaribe virus | - | cytopathic effect | >100 µM
CCc1c2c(nc3ccc(OC(=O)N4CCC(N5CCCCC5)CC4)cc13)-c1cc3c(c(=O)n1C2)COC(=O)[C@]3(O)CC | MIC | - | - | - | - | Saccharomyces cerevisiae | Mutant ΔERG6 | - | 500 µg/mL
Nc1nc(Cl)nc2c1ncn2[C@H]1CC[C@@H](CO)O1 | EC50 | - | - | Sheep chondrocytes G81092 | - | Maedi-visna virus | KV1772 | cytopathic effect | 0.15 µM
CCc1c2c(nc3ccc(O)cc13)-c1cc3c(c(=O)n1C2)COC(=O)[C@@]3(CC)OC(=O)CN | MIC | - | - | - | - | Saccharomyces cerevisiae | JHY6-1C | - | >100 µg/mL
C#Cc1c(C(N)=O)ncn1[C@@H]1O[C@H](CO)[C@@H](O)[C@H]1O | EC50 | - | - | VERO | - | Parainfluenza virus | TYPE 3/C243 | plaque count | 1.16 µg/mL
O=c1[nH]c(=O)n([C@@H]2O[C@H](CO)[C@@H](O)[C@@H]2O)cc1/C=C/Br | EC50 | - | - | HEL | - | Varicella zoster virus | ACV-resistant | plaque count | ≥13.1 µg/mL
Cn1c2ccccc2c2c1cc(C#N)c(=O)n2-c1ccc([N+](=O)[O-])cc1 | fold resistance | - | RT-V75I F77L F116Y Q151M | HeLa | - | HIV-1 | NRTI resistant | luciferase | 0.9
C=CCc1ccc(O)c(-c2ccc(O)c(CC=C)c2)c1 | MIC | - | - | - | - | Candida albicans | YL 317 | broth dilution | 64 µg/mL
NC(=O)c1ncn([C@@H]2O[C@H](CO)[C@@H](O)[C@H]2O)n1 | EC50 | - | - | VERO | - | Measles virus | Sugiyama | plaque count | 7.4 µg/mL
O=Nc1ccc2ccccc2c1N=Nc1ccccc1C(=O)O | EC50 | - | - | VERO | - | Tacaribe virus | - | cytopathic effect | 26.2 µM
CCSc1nsc(-c2ccccc2)c1C#N | EC50 | - | - | HEP-2 | - | Coxsackie virus | TYPE B1 | plaque count | >100 µg/mL
CCCCCCCCCCCCCCCCCCCCCCOCC(C)(COCCCCCCCCCCCCCCCCCCCCCC)CO[C@]1(C(=O)O)C[C@H](OS(=O)(=O)O)[C@@H](NC(C)=O)[C@H]([C@H](OS(=O)(=O)O)[C@@H](COS(=O)(=O)O)OS(=O)(=O)O)O1 | EC50 | - | - | HEP-2 | - | Respiratory syncytial virus | N869 | plaque count | 0.12 µM
COc1cc([C@@H]2c3cc4c(cc3[C@@H](O[C@@H]3O[C@@H]5CO[C@@H](c6cccs6)O[C@H]5[C@H](O)[C@H]3O)[C@H]3COC(=O)[C@H]23)OCO4)cc(OC)c1O | inhibition | 7 d | - | - | 10 µg/mL | Pneumocystis carinii | - | - | 72%
N[C@@H]1CN(c2c(F)cc3c(=O)c(C(=O)O)cn([C@@H]4C[C@@H]4F)c3c2Cl)CC12CC2 | MIC50 | - | - | - | - | Haemophilus influenzae | 38 strains (ampicillin-susceptible) | - | ≤0.004 µg/mL
C[C@@]1(O)[C@H](O)[C@@H](CO)O[C@H]1n1ccc2c(N)ncnc21 | inhibition | - | - | HepG2-5B | 2 µg/mL | Hepatitis C virus | - | MTT | 0%
Nc1ncnc2c1ncn2[C@H]1CC[C@@H](CO)O1 | inhibition | - | - | U-937 | 0.1 µM | HIV-2 | LAV-2 | virus yield | 60%
NC(=O)c1ncn([C@@H]2O[C@H](CO)[C@@H](O)[C@H]2O)n1 | MIC | - | - | - | - | Influenza A virus | A/University of Maryland/2/72 | - | 0.1 µg/mL
OC[C@@H]1C[C@@H](O)[C@H](n2cnc3c(NC4CCCCC4)nccc32)O1 | EC50 | - | - | MDBK | - | Bovine herpesvirus 1 | IRB-LA | cytopathic effect | >50 µM
Cc1ccc(N2NOC(=O)C2S(=O)(=O)Nc2nc(-c3ccc([N+](=O)[O-])cc3)cs2)cc1 | zone | - | - | - | 250 µg/mL | Aspergillus clavatus | MTCC323 | agar diffusion | 18 mm
COc1cc(C[C@H](C)[C@H](C)Cc2ccc(O)c(O)c2)ccc1O | MIC100 | - | - | - | - | Candida albicans | CCC 129-2000 | broth dilution | 62.5 µg/mL
Nc1nccc2c1ncn2[C@@H]1O[C@H](CO)[C@@H](O)[C@H]1O | EC50 | - | - | VERO | - | Measles virus | Niigata-1 | plaque count | 24 µg/mL
C#CC[C@@H](C(=O)N[C@H](/C=C/C(=O)OCC)C[C@@H]1CCNC1=O)n1cccc(NC(=O)c2cc(C)on2)c1=O | inhibition | - | - | H1-HELA | 0.016 µM | Rhinovirus | Serotype 52 | cytopathic effect / XTT | 90%
Cc1cn([C@H]2C[C@H](N=[N+]=[N-])[C@@H](CO)O2)c(=O)[nH]c1=O | EC50 | - | RT-M41L A62V S68N G112S M184V | HeLa | - | HIV-1 | Recombinant | luciferase | 0.00608 µM

An empty or dashed field is not shown. Fold resistance has wild type as its base. ECn is the concentration giving n% inhibition of infection, replication or growth. Neighbouring rows are from separate reports. Zone: diameter of growth inhibition. Inhibition is in % at the dose shown (toxicity tests: loss of growth or viability).